A mixed list of measured activities; the numbers were collected in NIAID ChemDB.

Shared fields: tests in culture; organism: HIV-1; endpoint: EC50

Lines come from different laboratories, so protocols vary. ECn is the concentration giving n% inhibition of infection, replication or growth. An empty or dashed field is not shown.

compound,strain or isolate,mutations,cells,read by,setting,value
CC[C@H](C)[C@H](C(=O)O)N1C[C@H](CN2CCC(c3cc(Cc4ccc(OC)c(C#N)c4)nn3CC)CC2)[C@@H](c2cccc(F)c2)C1,BaL,-,HeLa,β-galactosidase,50% human serum,<0.033 µM
COc1ccc(OC[C@H]2CN(C)CC[C@@H]2c2ccccc2)cc1,IIIB,-,MOLT-3,syncytia,-,>4 µg/mL
C#C[C@]1(CO)O[C@@H](n2cnc3c(N)nc(F)nc32)C[C@@H]1O,-,-,MT4-GFP,fluorescence,-,0.00106 µM
Cc1cc(O)cc(S(=O)(=O)c2cccc(N)c2C#N)c1,-,RT-K103N V108I,HeLa + HELA CD4+,β-galactosidase,-,10 µM
C/C(=C(/CCO)SS/C(CCO)=C(\C)N(C=O)Cc1cnc(C)nc1N)N(C=O)Cc1cnc(C)nc1N,LAV-1,-,CEM/HIV-1(LAV-1) + CEM,p24,-,~125 µM
Nc1ccn(C[C@@H](CO)OCP(=O)(O)O)c(=O)n1,H112,-,CD4+HELA + HeLa,p24,-,3 µM
Cc1cn([C@H]2C[C@H](N=[N+]=[N-])[C@@H](CO)O2)c(=O)[nH]c1=O,AZT-resistant,-,PBL,p24,-,1.1 µM
C#C[C@@]1(CO)C=C[C@H](n2cc(C)c(=O)[nH]c2=O)O1,HXB2,RT-M184V,MAGI (CCR5) + MAGI,β-galactosidase,-,17 µM
N#Cc1cc2[nH]c3ccccc3c2n(-c2ccc([N+](=O)[O-])cc2)c1=O,NNRTI-resistant,RT-K103N P225H,HeLa,luciferase,-,0.047 µM
Cc1c(C#N)cc(C(F)F)cc1Oc1c(C(F)(F)C(F)F)ncn(Cc2cc(F)c[nH]c2=O)c1=O,-,-,-,luminescence,-,0.0275 µM
Cc1ccc(NC(=O)CSc2nnc(C)n2-c2ccccc2)c(Br)c1,NL4-3,RT-Y188L,HeLa + HeLa-JC53,luciferase,-,>10 µM
C[C@H](Cn1cnc2c(N)ncnc21)OCP(=O)(O)O,B940374 (subtype B),-,PBMCs,p24 / ELISA / antigen,4 d,2.8 µM
NS(=O)(=O)c1ccc(NC(=O)CSc2nnc(C(F)(F)F)n2-c2cccc3ccccc23)c(Cl)c1,NL4-3,RT-Y188L,HeLa + HeLa-JC53,luciferase,-,0.049 µM
Cc1cn([C@H]2C=C[C@@H](CO)O2)c(=O)[nH]c1=O,HXB2,-,CD4+HELA + HeLa,plaque count,-,0.45 ± 0.07 µM
CCCCOc1ccc(Cc2cc(C3CCN(C[C@H]4CN([C@@H](C(=O)O)C(C)C)C[C@@H]4c4cccc(F)c4)CC3)n(CC)n2)cc1,BaL,-,HeLa,β-galactosidase,50% human serum,<0.3 µM
Cc1cn([C@H]2C[C@H](N=[N+]=[N-])[C@@H](CO)O2)c(=O)[nH]c1=O,B940374 (subtype B),-,PBMCs,p24 / ELISA / antigen,4 d,0.31 µM
Cc1cn([C@H]2C=C[C@@H](CO)O2)c(=O)[nH]c1=O,-,A62V V75I F77L F116Y Q151M,Primary T lymphocytes,p24 / ELISA,-,6.8 µM
CN(C)CCC=C1c2ccccc2CCc2ccccc21,IIIB,-,MOLT-3,p24,-,>10 µg/mL
[N-]=[N+]=N[C@H]1C[C@H](n2ccc(=S)[nH]c2=O)O[C@@H]1CO,LAV-Bru,-,CEM-C113 + CEM/C113,cytopathic effect / MTT,-,1.5 µM
COc1ccc(OC[C@@H]2CN(C)CC[C@H]2c2ccccc2)cc1,IIIB,-,MOLT-3,syncytia,-,20 µg/mL
CCn1nc(Cc2cccc(OC)c2)cc1C1CCN(C[C@H]2CN([C@@H](C(=O)O)C(C)(C)C)C[C@@H]2c2cccc(F)c2)CC1,BaL,-,HeLa,β-galactosidase,50% human serum,<0.033 µM
Cc1cn([C@H]2O[C@@H](CO)C[C@H]2F)c(=O)nc1N,-,-,PBM,-,-,>100 µM
CCOC(=O)[C@H](C)N[P@](=O)(CO[C@@H]1C=C(F)[C@H](n2cnc3c(N)ncnc32)O1)Oc1ccccc1,UG-92-031 (subtype A),-,PBMCs,p24 / ELISA / antigen,4 d,0.037 µM
Cc1cn([C@H]2C[C@H](N=[N+]=[N-])[C@@H](CO)O2)c(=O)[nH]c1=O,CLADE D,-,PBMC,cytopathic effect / XTT,clinical isolate,0.01 µM
O=c1[nH]cnc2c1ncn2[C@H]1CC[C@@H](CO)O1,RF,-,PBL,p24,-,0.33 µM
COc1cc(C(F)(F)F)cc(S(=O)(=O)c2cccc(N)c2C#N)c1,-,RT-K103N V108I,HeLa + HELA CD4+,β-galactosidase,-,10 µM
CC(C)(C)NC(=O)[C@@H]1CN(Cc2cccnc2)CCN1C[C@@H](O)C[C@@H](Cc1ccccc1)C(=O)N[C@H]1c2ccccc2C[C@H]1O,56252-1 NRTI resistant recombinant,RT-T69K K70G V75I F77L F116Y Q151M M184V,PBMC,p24,-,0.009 µM
Cc1cn([C@H]2C[C@H](N=[N+]=[N-])[C@@H](CO)O2)c(=O)[nH]c1=O,-,A62V V75I F77L F116Y Q151M,Primary T lymphocytes,p24 / ELISA,-,4.6 µM
Cc1cn([C@H]2C[C@H](N=[N+]=[N-])[C@@H](CO)O2)c(=O)[nH]c1=O,RTMDR,RT-M41L T215Y,PBMC,p24,-,>10 µM
O=c1ccn([C@@H]2O[C@@H](CO)C[C@H]2F)c(=O)[nH]1,-,-,PBM,-,-,>100 µM
S=C(NCCc1cccs1)Nc1ccc(Br)cn1,Q252-2 Clinical isolate NRTI-resistant,RT-M41L L210W T215Y,HT4 + HeLa,plaque count,-,0.156 µM
Fc1ccc([C@H]2CCNC[C@@H]2COc2ccc3c(c2)OCCO3)cc1,IIIB,-,MOLT-3,syncytia,-,>4 µg/mL
Cc1cc(C#N)cc(C)c1Oc1nc(Nc2ccc(C#N)cc2)nc(N)c1Br,Clinical isolate,-,HEK293T,luciferase,clinical isolate,0.00179 µM
Nc1ccn([C@H]2C=C[C@@H](CO)O2)c(=O)n1,HXB2,RT-V75T T215Y,CD4+HELA + HeLa,plaque count,-,1.5 µM
O=c1[nH]cnc2c1ncn2[C@H]1O[C@@H](CO)C[C@H]1F,-,-,PBM,-,-,>100 µM
Cc1cc(Cl)cc(S(=O)(=O)c2cccc(N)c2C#N)c1,-,RT-V108I Y181C,HeLa + HELA CD4+,β-galactosidase,-,18 µM
COC(=O)[C@H](C)NP(=O)(OC[C@@H]1C=C[C@H](n2cc(C)c(=O)[nH]c2=O)O1)Oc1ccc(Br)cc1,X267-5 Clinical isolate ZDV-resistant,RT-M41L F116S T215Y,PBMC,p24,-,0.03 µM
COC(=O)[C@H](C)NP(=O)(OC[C@@H]1C=C[C@H](n2cc(C)c(=O)[nH]c2=O)O1)Oc1ccc(Br)cc1,7324-1 NRTI resistant recombinant,RT-M41L D67N T69N K70R T215F K219E,PBMC,RT activity,-,0.0008 µM
O=c1[nH]cnc2c1ncn2[C@@H]1O[C@@H](CO)C[C@@H]1F,-,-,PBM,-,-,>100 µM
Nc1nc(=O)n([C@@H]2CS[C@H](CO)O2)cc1F,RTMN(184) (RT M41L M184V T215Y),RT-M41L M184V 215Y,HT4 + HT4 LacZ-1,plaque count,-,>500 µM
O=c1[nH]c(=O)n([C@H]2O[C@@H](CO)C[C@H]2F)cc1Br,-,-,PBM,-,-,>100 µM
O=C1O[C@H]2[C@@H]3OC(=O)c4cc(O)c(O)c(O)c4-c4c(cc(O)c(O)c4O)C(=O)OC[C@H]2O[C@@H](OC(=O)c2cc(O)c(O)c(O)c2)[C@@H]3OC(=O)c2cc(O)c(O)c3c2[C@@H]2C1=CC(=O)[C@](O)(O3)C2(O)O,NNRTI-resistant (RT G190A) ARP1014,RT-G190A,MAGI,-,-,1.1 µg/mL
Cc1cc(Br)cc(S(=O)(=O)c2cccc(N)c2C#N)c1,-,RT-Y181C,HeLa + HELA CD4+,β-galactosidase,-,14 µM
CC(=O)c1ccc(C)cc1NC(C(N)=O)c1c(Cl)cccc1Cl,IIIB,RT-V103A,MAGI,MTT,-,0.32 µM
CCn1nc(Cc2ccc(Cl)cc2)cc1C1CCN(C[C@H]2CN([C@@H](C(=O)O)C3CCCCC3)C[C@@H]2c2cccc(F)c2)CC1,BaL,-,HeLa,β-galactosidase,-,<0.0004 µM
O=c1[nH]cnc2c1ncn2[C@H]1CC[C@@H](CO)O1,HXB2-D (RT K65R M184V),RT-K65R M184V,CBMC,p24,-,18.5 ± 2.2 µM
CCc1c(CC2CCCCC2)nc(SCC(=O)c2ccccc2)[nH]c1=O,Clinical isolate,WAN,C8166,ELISA,-,0.025 µM
COc1ccc(OC[C@H]2CNCC[C@@H]2c2ccc(F)cc2)cc1,IIIB,-,MOLT-3,syncytia,-,>4 µg/mL
COC(=O)c1ccc(NC(=O)CSc2nnc(C)n2-c2ccc(C)cc2)c(Cl)c1,NL4-3,RT-K103N Y181C,HeLa + HeLa-JC53,luciferase,-,0.12 µM
Cn1c2ccccc2c2c1cc(C#N)c(=O)n2-c1ccc([N+](=O)[O-])cc1,NRTI resistant,RT-M41L E44D D67N T69D V118I L210W T215Y,HeLa,luciferase,-,0.019 µM
CCn1nc(Cc2cc(F)cc(F)c2)cc1C1CCN(C[C@H]2CN([C@@H](C(=O)O)C3CCCCC3)C[C@@H]2c2cccc(F)c2)CC1,BaL,-,HeLa,β-galactosidase,50% human serum,<0.011 µM
O=c1[nH]cnc2c1ncn2[C@H]1CC[C@@H](CO)O1,HXB2 WT,-,MAGI (CCR5) + MAGI,β-galactosidase,-,3.8 µM
CC(C)=CCN1Cc2cc(Cl)cc3[nH]c(=S)n(c23)C[C@@H]1C,HXB2,RT-Y181C,HT4 + HT4 LacZ-1,plaque count,-,4.5 µM
Cc1ccc(NC(=O)CSc2nnc(C)n2-c2cccc3ccccc23)c(Cl)c1,NL4-3,RT-K103N Y181C,HeLa + HeLa-JC53,luciferase,-,0.054 µM
CN1CC[C@@H](c2ccccc2)[C@H](COc2ccc3c(c2)OCCO3)C1,IIIB,-,MOLT-3,syncytia,-,>0.8 µg/mL
CC(C)OC(=O)OCOP(=O)(CO[C@H](C)Cn1cnc2c(N)ncnc21)OCOC(=O)OC(C)C,NL4-3,M184V/A502V,TZM-gfp,GFP,-,0.15 µM
CCOc1ccc(Cc2cc(C3CCN(C[C@H]4CN([C@@H](C(=O)O)[C@@H](C)CC)C[C@@H]4c4cccc(F)c4)CC3)n(CC)n2)cc1F,BaL,-,HeLa,β-galactosidase,50% human serum,<0.011 µM
Cc1cn([C@H]2C[C@H](N=[N+]=[N-])[C@@H](CO)O2)c(=O)[nH]c1=O,1617-1 NRTI resistant recombinant,RT-T69K K70G V75I F77L F116Y Q151M M184V,PBMC,p24,-,0.32 µM
Cc1ccnc2c1NC(=O)c1cccnc1N2C1CC1,HXB2,-,HT4 + HT4 LacZ-1,plaque count,-,0.09 µM
CO[C@H]1O[C@@H](n2ccc(=O)[nH]c2=O)C[C@@H]1N=[N+]=[N-],LAV-Bru,-,CEM-C113 + CEM/C113,cytopathic effect / MTT,-,<0.2 µM
Cc1ccnc2c1NC(=O)c1cccnc1N2C1CC1,NNRTI-resistant (RT G190E),RT-G190E,MAGI,β-galactosidase,-,0.095 µM
Cc1ccc(-n2c(C)nnc2SCC(=O)Nc2ccccc2C(F)(F)F)cc1,NL4-3,RT-K103N Y181C,HeLa + HeLa-JC53,luciferase,-,>10 µM
N#CC[C@H](C1CCCC1)n1cc(-c2ncnc3[nH]ccc23)cn1,-,A62V V75I F77L F116Y Q151M,Primary T lymphocytes,p24 / ELISA,-,0.03 µM
CC(=O)N1CCC(C(=O)N(CCCN2CCC(Cc3ccc(C(N)=O)cc3)CC2)c2ccc(C)c(Cl)c2)CC1,R5 subtype F_3 recombinant,-,U87 (CD4+ CCR5+) + U87,luciferase,-,0.006 µM
Nc1ncnc2c1ncn2[C@@H]1O[C@H](OCP(=O)(O)O)C=C1F,LJM (subtype B),-,PBMCs,p24 / ELISA / antigen,4 d,8.2 µM
Cc1cn([C@H]2C[C@H](N=[N+]=[N-])[C@@H](CO)O2)c(=O)[nH]c1=O,P026B (RT D67N K70R T215Y),RT-D67N K70R T215Y,HT4 + HT4-6C,plaque count,-,2.8 µM

10 of the rows above, restated:

compound | strain or isolate | mutations | cells | read by | setting | value
Cc1cc(Br)cc(S(=O)(=O)c2cccc(N)c2C#N)c1 | - | RT-Y181C | HeLa + HELA CD4+ | β-galactosidase | - | 14 µM
CC[C@H](C)[C@H](C(=O)O)N1C[C@H](CN2CCC(c3cc(Cc4ccc(OC)c(C#N)c4)nn3CC)CC2)[C@@H](c2cccc(F)c2)C1 | BaL | - | HeLa | β-galactosidase | 50% human serum | <0.033 µM
O=c1[nH]cnc2c1ncn2[C@@H]1O[C@@H](CO)C[C@@H]1F | - | - | PBM | - | - | >100 µM
COc1cc(C(F)(F)F)cc(S(=O)(=O)c2cccc(N)c2C#N)c1 | - | RT-K103N V108I | HeLa + HELA CD4+ | β-galactosidase | - | 10 µM
CC(=O)c1ccc(C)cc1NC(C(N)=O)c1c(Cl)cccc1Cl | IIIB | RT-V103A | MAGI | MTT | - | 0.32 µM
C[C@H](Cn1cnc2c(N)ncnc21)OCP(=O)(O)O | B940374 (subtype B) | - | PBMCs | p24 / ELISA / antigen | 4 d | 2.8 µM
O=C1O[C@H]2[C@@H]3OC(=O)c4cc(O)c(O)c(O)c4-c4c(cc(O)c(O)c4O)C(=O)OC[C@H]2O[C@@H](OC(=O)c2cc(O)c(O)c(O)c2)[C@@H]3OC(=O)c2cc(O)c(O)c3c2[C@@H]2C1=CC(=O)[C@](O)(O3)C2(O)O | NNRTI-resistant (RT G190A) ARP1014 | RT-G190A | MAGI | - | - | 1.1 µg/mL
C/C(=C(/CCO)SS/C(CCO)=C(\C)N(C=O)Cc1cnc(C)nc1N)N(C=O)Cc1cnc(C)nc1N | LAV-1 | - | CEM/HIV-1(LAV-1) + CEM | p24 | - | ~125 µM
O=c1[nH]cnc2c1ncn2[C@H]1O[C@@H](CO)C[C@H]1F | - | - | PBM | - | - | >100 µM
COC(=O)[C@H](C)NP(=O)(OC[C@@H]1C=C[C@H](n2cc(C)c(=O)[nH]c2=O)O1)Oc1ccc(Br)cc1 | 7324-1 NRTI resistant recombinant | RT-M41L D67N T69N K70R T215F K219E | PBMC | RT activity | - | 0.0008 µM